Results of unrelated studies side by side (data: NIAID ChemDB).

All rows: whole-cell or culture tests

Two numbers with a dash give a range or band. A number after MIC or MFC names an inhibition level or a share of isolates. Zones are inhibition diameters on agar. Inhibition is in % at the dose shown (toxicity tests: loss of growth or viability). Lines come from different laboratories, so protocols vary. ECn: concentration that inhibits the pathogen or its effect by n%. An empty or dashed field is not shown.

smiles,agent,measure,strain or isolate,method,cells,dose,value
CCCCCCCCCCCCOC(=O)[C@]1(O)C[C@@H](O)[C@@H](O)[C@H](OC(=O)/C=C/c2ccc(O)c(O)c2)C1,Aspergillus parasiticus,MIC80,Speare UMIP 1142.76,-,-,-,1500 µg/mL
CC[C@H]1OC(=O)[C@H](C)C(=O)[C@H](C)[C@@H](O[C@@H]2O[C@H](C)C[C@H](N(C)C)[C@H]2O)[C@@]2(C)C[C@@H](C)C(=NC(C)=O)[C@H](C)[C@@H](OC/C(=N\OCc3ccc(-c4ncccn4)s3)CO2)[C@]1(C)O,Streptococcus pneumoniae,MIC,7701 (erythromycin A-resistant),-,-,-,<0.06 µg/mL
Cn1cc(CCCCOc2ccc(C3=NCCO3)cc2)cc1C=O,Vesicular stomatitis virus,EC50,-,plaque count,VERO,-,>280 µM
CC1(C)S[C@@H]2[C@H](NC(=O)[C@H](N)c3ccc(O)cc3)C(=O)N2[C@H]1C(=O)O,Streptococcus pneumoniae,MIC50,595 strains,-,-,-,≤0.06 µg/mL
COC(=O)[C@]1(C)CCC[C@]2(C)c3ccc4[nH]cnc4c3CCC12,Punta Toro virus,EC50,-,plaque count,VERO,-,>4 µg/mL
CCc1cn([C@@H]2OC3COP(=O)(O)OC3[C@H]2O)c(=O)nc1N,Vesicular stomatitis virus,EC50,-,-,-,-,>400 µg/mL
CC[C@H]1OC(=O)[C@@](C)(F)C(=O)[C@H](C)[C@@H](O[C@@H]2O[C@H](C)C[C@H](N(C)C)[C@H]2O)[C@@]2(C)C[C@@H](C)C(=NC(C)=O)[C@H](C)[C@@H](OC/C(=N\OCc3ccc(N)nc3)CO2)[C@]1(C)O,Streptococcus pneumoniae,MIC,7701 (erythromycin A-resistant),-,-,-,0.25 µg/mL
Nc1nc2c(ncn2C=C2CC2CO)c(=O)[nH]1,Rat cytomegalovirus,EC50,-,plaque count,Rat embryo fibroblasts,-,4.7 µM
O=C(O)P(=O)(O)O,Varicella zoster virus,EC50,Oka penciclovir-resistant/B,cytopathic effect,HEL,-,128.5 µM
COC(=O)n1ccc(-c2ccc(N3C[C@H](CNC(C)=O)OC3=O)cc2F)n1,Haemophilus influenzae,MIC,UC 30063,-,-,-,>64 µg/mL
COC(=O)[C@]1(C)CCC[C@]2(C)c3cc(Br)c4nc[nH]c4c3CCC12,Punta Toro virus,EC50,-,plaque count,VERO,-,>4 µg/mL
OC[C@H]1O[C@@H](n2cnc3c(SCc4ccc(Cl)cc4Cl)ncnc32)[C@H](O)[C@@H]1O,Toxoplasma gondii,inhibition,RH adenosine kinase-deficient,-,-,10 µM,0%
CCOC(=O)c1ccc(OCCCCc2cc(C=O)n(C)c2)cc1,Vesicular stomatitis virus,EC50,-,plaque count,VERO,-,>55 µM
Cc1ccc(C(C)C)cc1,Aspergillus fumigatus,MLC,ATCC 46645,-,-,-,>20 µg/mL
CO[C@H]([C@H](C)[C@H](/C=C/c1ccccc1)OC)[C@@H](C)/C=C/C(C)=C/C(N)=O,Saccharomyces cerevisiae,MIC,-,-,-,-,100 µg/mL
CC(=O)NC[C@H]1CN(c2ccc(-c3noc(C#N)n3)c(F)c2)C(=O)O1,Haemophilus influenzae,MIC,UC 30063,-,-,-,>16 µg/mL
NC(=NC1CC1)c1ccc(N2CCN(c3ccc(C(N)=NC4CC4)cc3)CC2)cc1,Pneumocystis carinii,EC50,-,ATP,-,-,2.5 µg/mL
O=C1N(CCCCCOc2ccc(-c3ccc(Cl)cc3)cc2)CCN1c1ccncc1,Enterovirus,EC50,Clinical isolate 71 (4643),cytopathic effect,RD,-,0.038 µM
CC[C@H]1OC(=O)[C@H](C)C(=O)[C@H](C)[C@@H](O[C@@H]2O[C@H](C)C[C@H](N(C)C)[C@H]2O)[C@](C)(OC)C[C@@H](C)C(=O)[C@H](C)[C@H]2N(CCCCn3cnc(-c4cccnc4)c3)C(=O)O[C@]12C,Haemophilus influenzae,MIC50,434 strains,-,-,-,1 µg/mL
CCC(C)CN=C(N)c1ccc(N2CCN(c3ccc(C(N)=NCC(C)CC)cc3)CC2)cc1,Pneumocystis carinii,EC50,-,ATP,-,-,0.001 µg/mL
CC[C@H]1OC(=O)[C@@](C)(F)C(=O)[C@H](C)[C@@H](O[C@@H]2O[C@H](C)C[C@H](N(C)C)[C@H]2O)[C@@]2(C)C[C@@H](C)C(=NC(C)=O)[C@H](C)[C@@H](OC/C(=N\OCc3ccc(C(N)=O)cc3)CO2)[C@]1(C)O,Streptococcus pneumoniae,MIC,49619 (erythromycin A-susceptible),-,-,-,<0.06 µg/mL
COC(=O)[C@]1(C)CCC[C@]2(C)c3ccc4[nH]c(C)nc4c3CCC12,Punta Toro virus,EC50,-,plaque count,VERO,-,>4 µg/mL
CC[C@H]1OC(=O)[C@@](C)(F)C(=O)[C@H](C)[C@@H](O[C@@H]2O[C@H](C)C[C@H](N(C)C)[C@H]2O)[C@@]2(C)C[C@@H](C)C(=NC(C)=O)[C@H](C)[C@@H](OC/C(=N\OCc3ccc(-c4nccs4)nc3)CO2)[C@]1(C)O,Streptococcus pneumoniae,MIC,7701 (erythromycin A-resistant),-,-,-,<0.06 µg/mL
Nc1nc(NC2CC2)c2ncn(C=C3CC3CO)c2n1,Murine cytomegalovirus,EC50,-,plaque count,HFF,-,2.2 µM
OC[C@H]1O[C@@H](n2cnc3c(SCc4ccc(OC(F)(F)F)cc4)ncnc32)[C@H](O)[C@@H]1O,Toxoplasma gondii,inhibition,RH (WILD TYPE),-,-,25 µM,45.5%
CC(=O)NC[C@H]1CN(c2ccc(-c3cncs3)c(F)c2)C(=O)O1,Staphylococcus epidermidis,MIC,UC12084 (methicillin-resistant),-,-,-,≤0.125 µg/mL
COC(=O)[C@H](C)NC(=O)[C@H](Cc1ccc(O)cc1)NC(=O)[C@@H]1CCCN1C(=O)[C@H](CC(C)C)NC(=O)CNC(=O)[C@@H]1CCCN1C(=O)[C@H](CC(=O)O)NC(C)(C)C,Pseudomonas aeruginosa,zone,-,-,-,6 µg/mL,24 mm
Nc1nc(N)c2ncn(CCOCP(=O)(O)O)c2n1,Varicella zoster virus,EC50,Oka CF1742-resistant,cytopathic effect,HEL,-,2.6 µM
O=C(NCc1ccc(Cl)cc1)c1c[nH]c2ccc(C#CCO)cc2c1=O,Simian varicella-zoster virus,EC50,-,plaque count,-,-,2.4 µM
CC[C@H]1OC(=O)[C@@](C)(F)C(=O)[C@H](C)[C@@H](O[C@@H]2O[C@H](C)C[C@H](N(C)C)[C@H]2O)[C@@]2(C)C[C@@H](C)C(=NC(C)=O)[C@H](C)[C@@H](OC/C(=N\OCC#Cc3cccc(N)n3)CO2)[C@]1(C)O,Streptococcus pneumoniae,MIC,700906 (erythromycin A-resistant),-,-,-,0.5 µg/mL
NC(=NC1CCC1)c1ccc(N2CCN(c3ccc(C(N)=NC4CCC4)cc3)CC2)cc1,Pneumocystis carinii,EC50,-,ATP,-,-,0.058 µg/mL
CCCCCCc1cn([C@@H]2OC3COP(=O)(O)OC3[C@H]2O)c(=O)nc1N,Vesicular stomatitis virus,EC50,-,-,-,-,>400 µg/mL
Nc1nc2c(ncn2COC2COP(=O)(O)OC2)c(=O)[nH]1,Simian varicella-zoster virus,EC50,-,plaque count,MRC-5,-,2.3–4.7 µM
CCCCC(=O)O[C@H]1[C@H](C)[C@@H](O[C@@H]2O[C@H](C)C[C@H](N(C)C)[C@H]2O)C(C)(O)C[C@@H](C)/C(=N\OCCCOc2ccccc2)[C@H](C)[C@@H](O)[C@](C)(O)[C@@H](CC)OC(=O)[C@@H]1C,Mycobacterium avium complex,MIC,20039 (clarithromycin-susceptible),-,-,-,3.13 µg/mL
CC[C@H]1OC(=O)[C@H](C)C(=O)[C@H](C)[C@@H](O[C@@H]2O[C@H](C)C[C@H](N(C)C)[C@H]2O)[C@@]2(C)C[C@@H](C)C(=NC(C)=O)[C@H](C)[C@@H](OC/C(=N\OCc3ccc(C(N)=O)s3)CO2)[C@]1(C)O,Streptococcus pneumoniae,MIC,700906 (erythromycin A-resistant),-,-,-,0.25 µg/mL
CCCCCCCCCCN=C(N)c1ccc(N2CCN(c3ccc(C(N)=NCCCCCCCCCC)cc3)CC2)cc1,Pneumocystis carinii,EC50,-,ATP,-,-,0.723 µg/mL
COC(=O)[C@]1(C)CCC[C@]2(C)c3cc4cc[nH]c4cc3CCC12,Punta Toro virus,EC50,-,plaque count,VERO,-,>4 µg/mL
O=c1[nH]c(=O)n([C@@H]2O[C@H](CO)[C@@H](O)[C@@H]2O)cc1/C=C/Br,Varicella zoster virus,EC50,Oka BVDU-resistant,cytopathic effect,HEL,-,>57 µM
CC(=O)NC[C@H]1CN(c2ccc(-c3csc(C)c3)c(F)c2)C(=O)O1,Staphylococcus epidermidis,MIC,UC12084 (methicillin-resistant),-,-,-,0.5 µg/mL
CCCCc1cn([C@@H]2O[C@H](COP(=O)(O)O)[C@@H](O)[C@H]2O)c(=O)nc1N,Vesicular stomatitis virus,EC50,-,-,-,-,>400 µg/mL
CC(CCOc1ccc(-c2ccc(Cl)cc2)cc1)CCN1CCN(c2ccncc2)C1=O,Enterovirus,EC50,Clinical isolate 71 (2231) genotype C,cytopathic effect,RD,-,0.038 µM
Nc1nc2c(ncn2COC(CO)CO)c(=O)[nH]1,Varicella zoster virus,EC50,Oka penciclovir-resistant/B,cytopathic effect,HEL,-,0.63 µM
CCCCc1cn([C@@H]2OC3COP(=O)(O)OC3[C@H]2O)c(=O)nc1N,Vesicular stomatitis virus,EC50,-,-,-,-,>400 µg/mL
Brc1ccc(Cn2ccc3nc(-c4ccccc4)nc-3c2)cc1,Bovine viral diarrhea virus,EC50,NADL (TYPE 1),virus yield,MDBK,-,0.074 µM
C=CCc1ccc(O)c(OC)c1,Candida albicans,MIC90,3031,turbidity,-,-,490 µg/mL
COCC1=C(C(=O)O)N2C(=O)C(NC(=O)/C(=N/OC)c3csc(N)n3)C2SC1,Haemophilus influenzae,MIC50,434 strains,-,-,-,≤0.06 µg/mL

Repeating the first 6 entries:

smiles | agent | measure | strain or isolate | method | cells | dose | value
CCCCCCCCCCCCOC(=O)[C@]1(O)C[C@@H](O)[C@@H](O)[C@H](OC(=O)/C=C/c2ccc(O)c(O)c2)C1 | Aspergillus parasiticus | MIC80 | Speare UMIP 1142.76 | - | - | - | 1500 µg/mL
CC[C@H]1OC(=O)[C@H](C)C(=O)[C@H](C)[C@@H](O[C@@H]2O[C@H](C)C[C@H](N(C)C)[C@H]2O)[C@@]2(C)C[C@@H](C)C(=NC(C)=O)[C@H](C)[C@@H](OC/C(=N\OCc3ccc(-c4ncccn4)s3)CO2)[C@]1(C)O | Streptococcus pneumoniae | MIC | 7701 (erythromycin A-resistant) | - | - | - | <0.06 µg/mL
Cn1cc(CCCCOc2ccc(C3=NCCO3)cc2)cc1C=O | Vesicular stomatitis virus | EC50 | - | plaque count | VERO | - | >280 µM
CC1(C)S[C@@H]2[C@H](NC(=O)[C@H](N)c3ccc(O)cc3)C(=O)N2[C@H]1C(=O)O | Streptococcus pneumoniae | MIC50 | 595 strains | - | - | - | ≤0.06 µg/mL
COC(=O)[C@]1(C)CCC[C@]2(C)c3ccc4[nH]cnc4c3CCC12 | Punta Toro virus | EC50 | - | plaque count | VERO | - | >4 µg/mL
CCc1cn([C@@H]2OC3COP(=O)(O)OC3[C@H]2O)c(=O)nc1N | Vesicular stomatitis virus | EC50 | - | - | - | - | >400 µg/mL